Measured values from PubChem BioAssay AID588824 (The Scripps Research Institute Molecular Screening Center, 2011).
The list shows a part of the results, in another mix than the full data. Calls of active or inactive are those of the source. No stated cut-off is given here; in the data, active means inhibition above about 25%; inactive means the rest.

Assay: VP16 transactivation inhibitors, counter-screen for SRC1 inhibitor project, cell-based, luminescence, high throughput (AID 588824)
Details: cell-based VP16 transactivation luciferase luminescence; at 3.6 µM; hits give high values

SMILES	inhibition
O=c1[nH]c2ccccc2n1C1CCN(C(c2ccccc2)c2nnnn2C2CCCCC2)CC1 (configuration not stated)	inactive: -6.22%
COc1cccc(C(c2nnnn2C2CCCCC2)N2CCC(n3c(=O)[nH]c4ccccc43)CC2)c1OC (configuration not stated)	inactive: -0.5%
